A mixed list of measured activities; the numbers were collected in NIAID ChemDB.

All rows: growth or infection tests; organism: Rhinovirus

Lines come from different laboratories, so protocols vary. A number after MIC or MFC names an inhibition level or a share of isolates. Percent inhibition refers to the dose given; in toxicity tests it is the harm to the cells. ECn is the concentration giving n% inhibition of infection, replication or growth. Blank or dashed fields: not listed here.

SMILES | strain or isolate | cells | method | read-out | tested at | value
CN(C)c1ccc(Cn2cnc3c(N(C)C)nc(C(F)(F)F)nc32)cc1 | Serotype 13 | M-HELA | plaque count | inhibition | 8 µM | 45%
CCOC(=O)c1ccc(OCCOc2ccc(-c3snc(SC)c3C#N)cc2)cc1 | Serotype 59 (group B) | HELA-OHIO | cytopathic effect | EC50 | - | >2 µM
Fc1cccc(Cn2cnc3c(Nc4cccc(F)c4)nc(C(F)(F)F)nc32)c1 | Serotype 27 | M-HELA | plaque count | EC50 | - | >5 µM
Cc1ccc(Cn2cnc3c(N(C)C)nc(C(F)(F)F)nc32)c(C)c1 | Serotype 15 | M-HELA | plaque count | inhibition | 8 µM | 30%
O=C(Nc1ccc2cc(S(=O)(=O)[O-])cc(S(=O)(=O)[O-])c2c1)c1ccccc1 | - | Human embryonic lung cells | cytopathic effect | inhibition | 50 µg/mL | 63%
CN(C)c1nc(C(F)(F)F)nc2c1ncn2Cc1ccc(Cl)c(Cl)c1 | Serotype 3 | M-HELA | plaque count | inhibition | 8 µM | 40%
CSc1nsc(-c2ccc(OCCCCOc3ccccc3)cc2)c1C#N | Serotype 70 (group A) | HELA-OHIO | cytopathic effect | EC50 | - | 1 µM
Cc1cc(CCCOc2c(C)cc(-c3noc(C(F)(F)F)n3)cc2C)on1 | Isolate 15 | OHIO HELA-I | cytopathic effect / visual reading | EC50 | - | <0.01 µg/mL
Cc1cc(CCCCCOc2cc(Cl)c(-c3nnc(C)o3)c(Cl)c2)on1 | Serotype 67 | - | - | MIC80 | - | 0.1 µg/mL
O=S(=O)([O-])c1ccc(NS(=O)(=O)c2ccccc2)c2c(S(=O)(=O)[O-])cccc12 | - | Human amnion AV3 cells | cytopathic effect | inhibition | 5 µg/mL | 20%
CSc1nsc(-c2ccc(OCCCc3ccccc3)cc2)c1C#N | Serotype 86 (group A) | HELA-OHIO | cytopathic effect | EC50 | - | 2 µM
CN(C)c1nc(C(F)(F)F)nc2c1ncn2Cc1ccc(F)cc1 | Serotype 5 | M-HELA | plaque count | inhibition | 8 µM | 11%
CSc1nsc(-c2ccc(OCCOc3ccc([N+](=O)[O-])cc3)cc2)c1C#N | Serotype 9 (group B) | HELA-OHIO | cytopathic effect | EC50 | - | >2 µM
O=S(=O)([O-])c1ccc(O)c2ccccc12 | - | Human amnion AV3 cells | cytopathic effect | inhibition | 50 µg/mL | 15%
CCOC(=O)c1ccc(OCCCCOc2ccc(-c3snc(SC)c3C#N)cc2)cc1 | Serotype 15 (group B) | HELA-OHIO | cytopathic effect | EC50 | - | >2 µM
O=S(=O)([O-])c1ccc2c(S(=O)(=O)[O-])cc(S(=O)(=O)[O-])cc2c1 | - | Human amnion AV3 cells | cytopathic effect | inhibition | 10 µg/mL | 10%
Nc1ccc(Cn2cnc3c(Nc4cccc(F)c4)nc(C(F)(F)F)nc32)cc1 | Serotype 2 | M-HELA | plaque count | EC50 | - | 11 µM
CSc1nsc(-c2ccc(OCCOc3ccccc3)cc2)c1C#N | Serotype 41 (group B) | HELA-OHIO | cytopathic effect | EC50 | - | >20 µM
Cc1cc(CCCCCOc2cc(Cl)c(-c3nnco3)c(Cl)c2)on1 | serotype 2 1A 1B 6 14 21 22 15 25 30 50 67 89 86 41 | - | - | MIC50 | - | 0.25 µg/mL
Nc1ccc(S(=O)(=O)[O-])c2c(S(=O)(=O)[O-])ccc(O)c12 | - | Human embryonic lung cells | cytopathic effect | inhibition | 10 µg/mL | 80%
CC(C)Oc1ccc(Cn2cnc3c(N(C)C)nc(C(F)(F)F)nc32)cc1 | Serotype 13 | M-HELA | plaque count | inhibition | 8 µM | 39%
CSc1nsc(-c2ccc(OCCCOc3ccccc3)cc2)c1C#N | Serotype 63 (group B) | HELA-OHIO | cytopathic effect | EC50 | - | >20 µM
CCOC(=O)c1ccc(OCCC2CCN(c3ccc(C)nn3)CC2)cc1 | 181-CV16 (ICAM-1 receptor group 12) | KB | neutral red | EC50 | - | 0.054 µM
CCOC(=O)c1ccc(OCCCOc2ccc(-c3snc(SC)c3C#N)cc2)cc1 | Serotype 41 (group B) | HELA-OHIO | cytopathic effect | EC50 | - | >2 µM
Nc1cccc(S(=O)(=O)O)c1 | - | Human embryonic lung cells | cytopathic effect | inhibition | 5 µg/mL | 0%

A second listing of 2 rows from above:

SMILES,strain or isolate,cells,method,read-out,tested at,value
CCOC(=O)c1ccc(OCCC2CCN(c3ccc(C)nn3)CC2)cc1,181-CV16 (ICAM-1 receptor group 12),KB,neutral red,EC50,-,0.054 µM
Cc1cc(CCCOc2c(C)cc(-c3noc(C(F)(F)F)n3)cc2C)on1,Isolate 15,OHIO HELA-I,cytopathic effect / visual reading,EC50,-,<0.01 µg/mL